Pooled drug test results. Numbers come from NIAID ChemDB, via PubChem.

Common to all: tests in culture; species: HIV-1

Rows are shuffled and stem from different studies. ECn is the concentration giving n% inhibition of infection, replication or growth. Blank or dashed fields: not listed here.

SMILES,method,strain or isolate,endpoint,setting,cell line,changes,result
O=C(/C=C/c1ccc(O)c(O)c1)OCCCOC(=O)/C=C/c1ccc(O)c(O)c1,cytopathic effect / XTT,RF,EC50,,CEM + CEM-SS,,>13.7 µM
CC(C)c1nc(CN(C)C(=O)N[C@H](C(=O)N[C@@H](Cc2ccccc2)C[C@H](O)[C@H](Cc2ccccc2)NC(=O)OCc2cncs2)C(C)C)cs1,,WOPRO1838 Recombinant,EC50,,,,1.6 µM
N#Cc1cc(Cl)cc(Oc2c(Br)ccc(Cn3c(=O)[nH]c4nnccc43)c2F)c1,MTT,K103N/Y181C,EC50,,MT-4,NNRTI-resistant (RT K103N/Y181C),0.038 µM
O=C(O)c1c(Br)c(Br)c(Br)c(Br)c1-c1c2ccc(=O)c(O)c-2oc2c(O)c(O)ccc12,β-galactosidase,NL4-3,EC50,,MAGI,,12.8 µM
CC(=O)N[C@H](C(=O)N[C@@H](Cc1ccccc1)[C@H](O)CN1C[C@H]2CCCC[C@H]2C[C@H]1C(=O)NC(C)(C)C)C(C)(C)S(C)(=O)=O,,,EC50,,,,0.056 µM
Cc1cn([C@H]2C=C[C@@H](COC(=O)NCCSC(=O)OC[C@@H]3C=C[C@H](n4cc(C)c(=O)[nH]c4=O)O3)O2)c(=O)[nH]c1=O,cytopathic effect / MTT,WT,EC50,,MT-4,,45 µM
N#Cc1cc(Cl)cc(Oc2c(Br)ccc(Cn3c(=O)[nH]c4ccccc43)c2F)c1,MTT,,EC50,,MT-4,Wild type,0.005 µM
Cc1cn([C@H]2C[C@H](N=[N+]=[N-])[C@@H](COP(=O)(CC(N)=O)OC3CCCCC3)O2)c(=O)[nH]c1=O,p24,GKV-4046,EC50,,MT-4,,0.0085 µM
C[C@H](OC(=O)/C=C/c1ccc(O)c(O)c1)[C@H](C)OC(=O)/C=C/c1ccc(O)c(O)c1,cytopathic effect / XTT,RF,EC50,,CEM + CEM-SS,,>3.47 µM
Nc1ncnc2c1ncn2C1CC(/C=C/P(=O)(O)O)(C(F)(F)F)CO1,RT activity,LAI,EC90,,PBMC,,90 µM
O=c1[nH]cnc2c1ncn2[C@H]1CC[C@@H](CO)O1,MTT,ADP141 (RT D67N K70N T215F K219Q),EC50,,MT-4,RT-D67N K70N T215F K219Q,1.6 µg/mL
CC(C)[C@H](NC(=O)OCc1ccccc1)C(=O)N[C@@H](Cc1ccccc1)[C@@H](O)[C@@H](NCc1ccc(Cl)cc1)C(=O)N[C@H](C(=O)NCc1nc2ccccc2[nH]1)C(C)C,p24,RF,EC50,,MT-4,,0.11 µM
CC(=O)N1CCC(C(=O)N(CCCN2CCC(Cc3ccc(C(N)=O)cc3)CC2)c2ccc(C)c(Cl)c2)CC1,luciferase,R5 subtype B_9 recombinant,EC50,,U87 (CD4+ CCR5+) + U87,,0.013 µM
CS(=O)(=O)c1ccc(OP(=O)(OC[C@@H]2CC[C@H](n3ccc(=O)[nH]c3=O)O2)OC[C@@H]2CC[C@H](n3ccc(=O)[nH]c3=O)O2)cc1,cytopathic effect / trypan blue,IIIB,EC50,,MT-4,,>250 µM
Cc1cn([C@H]2C[C@H](N=[N+]=[N-])[C@@H](CO)O2)c(=O)[nH]c1=O,,NL4-3,EC50,,,DS-resistant,0.004 µM
NOCc1ccccc1F,cytopathic effect / MTT,IIIB,EC50,,MT-4,,8.15 µg/mL
N#Cc1cc(Cl)cc(Oc2c(Br)ccc(Cn3cc(Cl)c(=O)[nH]c3=O)c2F)c1,MTT,,EC50,,MT-4,Wild type,0.002 µM
Cc1cn([C@H]2C[C@H](N=[N+]=[N-])[C@@H](CO)O2)c(=O)[nH]c1=O,MTT,,EC50,,MT-4,RES056,0.0167 µM
COC(=O)N[C@H](C(=O)N[C@@H](Cc1ccccc1)[C@@H](O)CN(Cc1ccc(-c2ccccn2)cc1)NC(=O)[C@@H](NC(=O)OC)C(C)(C)C)C(C)(C)C,p24 / luciferase,,EC50,"clinical isolate, multidrug-resistant",PBMC,L10I K14R L33I M36I M46I F53I K55R I62V L63P A71V G73S V82A L90M I93L,0.45 µg/mL
CC(C)[C@H](NC(=O)c1ccc2ccccc2n1)C(=O)N[C@@H](Cc1ccccc1)[C@H](O)CN1CC[C@@H](OCc2ccncc2)C[C@H]1C(=O)NC(C)(C)C,p24,ddI-resistant,EC50,,PBMC,,0.005 µM
O=S(=O)(O)OCC1OC2OC3C(COS(=O)(=O)O)OC(OC4C(COS(=O)(=O)O)OC(OC5C(COS(=O)(=O)O)OC(OC6C(COS(=O)(=O)O)OC(OC7C(COS(=O)(=O)O)OC(OC8C(COS(=O)(=O)O)OC(OC1C(OS(=O)(=O)O)C2OS(=O)(=O)O)C(OS(=O)(=O)O)C8OS(=O)(=O)O)C(OS(=O)(=O)O)C7OS(=O)(=O)O)C(OS(=O)(=O)O)C6OS(=O)(=O)O)C(OS(=O)(=O)O)C5OS(=O)(=O)O)C(OS(=O)(=O)O)C4OS(=O)(=O)O)C(OS(=O)(=O)O)C3OS(=O)(=O)O,cytopathic effect / MTT,NL43)(JM3100r),EC50,,MT-4,,105 µg/mL
COc1ccc(CN[C@@H](C(=O)N[C@H](C(=O)NCc2nc3ccccc3[nH]2)C(C)C)[C@H](O)[C@H](Cc2ccccc2)NC(=O)[C@@H](NC(=O)OCc2ccccc2)C(C)(C)C)cc1,p24,BaL,EC50,,Monocytes + Monocyte,,0.0076 µM
N#Cc1cc(Cl)cc(Oc2c(Br)ccc(Cn3ccc(=O)[nH]c3=O)c2F)c1,MTT,K103N/Y181C,EC50,,MT-4,NNRTI-resistant (RT K103N/Y181C),0.019 µM
Cc1cn([C@H]2C[C@H](N=[N+]=[N-])[C@@H](CO)O2)c(=O)[nH]c1=O,cytopathic effect / MTT,IIIB,EC50,,MT-4,,0.0042 µg/mL
Cn1ncc2c1S(=O)(=O)N(CCc1ccccc1)C(=O)N2CCc1cccc(Cl)c1,MTT,IIIB,EC50,,MT-4,,>300.1 µM
Cn1cc(Cc2ccc(Br)c(Oc3cc(Cl)cc(C#N)c3)c2F)c(=O)[nH]c1=O,MTT,K103N/Y181C,EC50,,MT-4,NNRTI-resistant (RT K103N/Y181C),0.066 µM
Cn1ncc2c1S(=O)(=O)N(CCc1ccccc1)C(=O)N2CCC#N,MTT,IIIB,EC50,,MT-4,,>251.4 µM
Cc1cn([C@H]2C[C@H](F)[C@@H](CO)O2)c(=O)[nH]c1=O,antigen,SCV 4005,EC50,,MT-4,,0.0029 µM
Cc1ccnc2c1NC(=O)c1cccnc1N2C1CC1,,NL4-3,EC50,,MT-4,,0.06 µM
Cc1cn([C@H]2C=C[C@@H](COP(=O)(OC[C@@H]3C=C[C@H](n4cc(C)c(=O)[nH]c4=O)O3)Oc3ccc(S(C)(=O)=O)cc3)O2)c(=O)[nH]c1=O,cytopathic effect / trypan blue,IIIB,EC50,,MT-4,,1.8 µM
CCOP(=O)(OC[C@H]1O[C@@H](n2cc(C)c(=O)[nH]c2=O)C[C@@H]1N=[N+]=[N-])C(=O)NCCc1ccccc1,p24,GKV-4046,EC90,,MT-4,,0.0002 µM
CCCCCCCCCCCCCCCC(=O)OCC(COP(=O)(O)OC[C@H]1O[C@@H](n2cc(C)c(=O)[nH]c2=O)C[C@@H]1N=[N+]=[N-])OC(=O)CCCCCCCCCCCCCCC,p24,LAV,EC50,,CEM-CCRF,,4 µM
Cc1cc(C#N)cc(C)c1Oc1nc(Nc2ccc(C#N)cc2)ncc1SCC(=O)N1CCSCC1,MTT,,EC50,,MT-4,F227L V106A,1.09 µM
CSc1ccc(OP(=O)(OC[C@@H]2CC[C@H](n3cnc4c(N)ncnc43)O2)OC[C@@H]2CC[C@H](n3cnc4c(N)ncnc43)O2)cc1,cytopathic effect / trypan blue,IIIB,EC50,,MT-4,,67 µM
NOCc1c(F)cccc1Cl,cytopathic effect / MTT,MN,EC50,,MT-4,,2.9 µg/mL
CC(C)(C)NC(=O)[C@@H]1C[C@@H]2CCCC[C@@H]2CN1C[C@@H](O)[C@H](Cc1ccccc1)NC(=O)[C@@H](N)C(C)(C)S(C)(=O)=O,,,EC50,,,,0.099 µM
Cc1cn([C@H]2C=C[C@@H](CO)O2)c(=O)[nH]c1=O,cytopathic effect / MTT,EFV-resistant (RT K103R V179D P225H),EC50,,MT-4,RT-K103R V179D P225H,0.4 µM
N#Cc1cc(Cl)cc(Oc2c(Br)ccc(CN3CC(=O)NC3=O)c2F)c1,MTT,K103N/Y181C,EC50,,MT-4,NNRTI-resistant (RT K103N/Y181C),>0.1 µM
Nc1ncnc2c1ncn2[C@H]1CC[C@@H](CO)O1,cytopathic effect / trypan blue,IIIB,EC50,,MT-4,,4.7 µM
N#Cc1cc(Cl)cc(Oc2c(Br)ccc(Cn3[nH]c(=O)[nH]c3=O)c2F)c1,MTT,K103N/Y181C,EC50,,MT-4,NNRTI-resistant (RT K103N/Y181C),0.028 µM
S=c1[nH]c2cc(Cl)cc3c2n1CCN1CCCCC31,cytopathic effect / MTT,IIIB,EC90,,MT-4,,>200 µM
CC(=O)Oc1ccc(/C=C/C(=O)O[C@@H](C(=O)O)[C@@H](OC(=O)/C=C/c2ccc(OC(C)=O)c(OC(C)=O)c2)C(=O)O)cc1OC(C)=O,cytopathic effect / XTT,RF,EC50,,CEM + CEM-SS,,16.85 µM
CCOP(=O)(OC[C@@H]1C=C[C@H](n2cc(C)c(=O)[nH]c2=O)O1)C(N)=O,p24,GKV-4046,EC90,,MT-4,,2.1 µM
Cc1cn([C@H]2C[C@H](N=[N+]=[N-])[C@@H](CO)O2)c(=O)[nH]c1=O,p24,LAV,EC50,,CEM-CCRF,,0.11 µM
CC(C)=CCN1Cc2cc(Cl)cc3[nH]c(=S)n(c23)C[C@@H]1C,cytopathic effect / MTT,13MB1 (TIBO-resistant RT L100I),EC50,,MT-4,RT-L100I,0.4 µg/mL
c1cc(CN2CCCNCCNCCCNCC2)ccc1CN1CCCNCCNCCCNCC1,,NL4-3,EC50,,,AMD3100-resistant,>1.3 µM
Nc1nc2c(ncn2C2CC(CCP(=O)(O)O)(C(F)(F)F)CO2)c(=O)[nH]1,RT activity,LAI,EC50,,PBMC,,53 µM
CC(C)(C)NC(=O)[C@@H]1C[C@@H]2CCCC[C@@H]2CN1C[C@@H](O)[C@H](Cc1ccccc1)NC(=O)[C@@H](NC(=O)COc1cccnc1)C(C)(C)S(C)(=O)=O,,,EC50,,,PR-L10I G48V V82A L90M,0.015 µM
FC(F)(F)c1ccnc2c1NC(=NC1CC1)c1cccnc1N2C1CC1,cytopathic effect / MTT,IIIB,EC50,,MT-4,,>200 µM
CN1N=C(N)c2cn([C@@H]3O[C@H](COP(=O)(O)O)[C@@H](O)[C@H]3O)c3ncnc1c23,XTT,LAV,EC50,,CEM + CEM-SS,,0.07 µM
Cn1ncc2c1S(=O)(=O)N(CCc1ccc(C(C)(C)C)cc1)C(=O)N2CCc1ccc(C(C)(C)C)cc1,MTT,IIIB,EC50,,MT-4,,>7.5 µM
Cc1cn([C@H]2C=C[C@@H](COC(=O)NCCSC(=O)OC[C@@H]3CC[C@H](n4cnc5c(=O)[nH]cnc54)O3)O2)c(=O)[nH]c1=O,cytopathic effect / MTT,NNRTI-resistant (RT K103N Y181C),EC50,,MT-4,RT-K103N Y181C,>20 µM
Cc1cn([C@H]2C[C@H](N=[N+]=[N-])[C@@H](CO)O2)c(=O)[nH]c1=O,MTT,IIIB,EC50,,MT-4,,0.0002 µg/mL
Cc1ccc(CCN2C(=O)N(CCc3ccc(C)cc3)S(=O)(=O)c3c2cnn3C)cc1,MTT,IIIB,EC50,,MT-4,,>170.5 µM
O=C1N(Cc2ccc(CO)cc2)[C@H](Cc2ccccc2)[C@H](O)[C@@H](O)[C@@H](Cc2ccccc2)N1Cc1ccc(CO)cc1,p24,Clinical isolate L,EC50,,PBMC,,0.11 µM
O=C(NC(=S)Nc1ccc(Br)cn1)c1ccccc1[N+](=O)[O-],p24 / luminescence,ERS104pre,EC50,,PBMC,,0.32 µM
O=C(/C=C/c1ccc(O)c(O)c1)NCCOC(=O)/C=C/c1ccc(O)c(O)c1,cytopathic effect / XTT,RF,EC50,,CEM + CEM-SS,,>9.45 µM